## Results of single-concentration screens

From ChEMBL document CHEMBL3988442, “University of Dundee, Small-Polar-MMV Screening Library” (2021).

The filed quantity is “Percent Effect” (%). The controls that fix the scale are not given in the record; negative values are as filed. The entries come from a sample that favours strong results. Two or more numbers in one place are separate tests of the same structure; such repeats can differ widely.

A: 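Growth of Mycobacterium tuberculosis over 3 days (7H9 medium with glucose and tyloxapol); the read-out is not stated. Compounds at 50 µM. Direction is inferred from retests: higher values go with more growth inhibition. About 69,000 compounds were tested under these conditions; 1.1% (about 760) showed 50% or more at least once.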
B: 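Phenotypic screen: M. tuberculosis growth, cholesterol and DPPC medium, 4 days; the read-out is not stated. Tested at 50 µM. Higher reads as more growth inhibition (inferred: compounds with an IC50 in retests scored well above the rest). Of about 69,000 compounds tested this way, about 370 (0.54%) reached 50% or more in at least one test.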

For c1coc(CNc2nnc(Cc3ccsc3)o2)c1 the result was A: 45.34%; B: 37.08%.
For Cc1nc(C2CCN(C)CC2)cc(N2CCOc3ccc(Cl)cc3C2)n1 the result was A: 63.76%.
For Cc1ccc(C(=O)N2CCCN(C)c3ccc(F)cc32)o1 the result was A: -13.77%; B: -5.557%.
For COc1cc(CN2CCCC(Nc3cccc(F)c3)C2)cc(OC)c1O (configuration not stated) the result was A: 17.22% and 7.976%; B: 29.83%.
For Cc1ccc(CN(C)C(=O)c2cnsn2)cc1 the result was A: 54.74%.
For CC(C)c1cc(C(=O)N2CCN(Cc3ccsc3)CC2)n[nH]1 the result was A: 79.47%; B: 12.59%.
For c1ccc(Cn2ccnc2CNC2CCCOc3ccccc32)cc1 (configuration not stated) the result was A: 34.85%.
For Cc1cc(C(=O)N2CCN(c3nc4ccccc4s3)CC2)no1 the result was B: -36.3%.
For COc1ccc(C[C@H]2CN(C(=O)c3cc(C)no3)CC[C@H]2OC)cc1 the result was A: 16.57%.
For O=C(CNc1cccc(S(=O)(=O)C(F)F)c1)NCc1ccco1 the result was A: -20.76%; B: -7.526%.
For COc1ccccc1OC1CN(C(=O)c2ccc(C(C)=O)s2)C1 the result was A: 14.39%; B: 2.841%.
For Nc1nnc(Cn2nnc(-c3ccccc3F)n2)s1 the result was A: -3.638%.
For Cc1nc(C)c(C(=O)N2CCc3nc4sc(C)cc4c(=O)n3CC2)o1 the result was A: -2.472%.
For O=C(NCC1CC1)N1CCN(Cc2ccc3c(c2)OCCO3)CC1 the result was A: 70.14%; B: 65.83%.
For Cc1noc(C)c1CCC(=O)N1CCn2cccc2C1C (configuration not stated) the result was A: 1.714% and 59.61%.
For O[C@@H]1CN(Cc2cc(Cl)cc3cccnc23)C[C@@H]1O the result was A: -0.5647%.
For O=C(O)C(F)(F)F.[H][C@@]12CN(Cc3cccs3)C[C@]1([H])C(=O)N(c1ccsc1)C2 the result was A: 54.89%; B: 43.55%.
For CN(Cc1ccco1)C(=O)c1cccc(N2CCCC2=O)c1 the result was B: -7.688%.
For CC(=O)N1Cc2ccccc2C[C@H]1C(=O)Nc1ccccn1 the result was A: 3.677%.
For COc1cc2cc3c(nc2cc1OC)OCCN(CC1CC1)C3 the result was A: 10.45%.
For Cc1noc(NCc2ccc(F)cc2)n1 the result was A: 7.056%.
For CCOc1ccc(Cl)cc1CCNC(=O)Cn1ccccc1=O the result was A: -11.31%; B: 9.182%.
For CC(C)c1nsc(NC2CCOC3(CCCC3)C2)n1 (configuration not stated) the result was B: 53.06%.
For Cc1cnn(CCC(=O)N2CCCN(c3nc(C)cs3)CC2)c1 the result was A: -16.66%.
For CCCn1nc(C(=O)N(C)Cc2cnn(C)c2)ccc1=O the result was A: 23.35%.

2 of the entries, repeated:

- Cc1cnn(CCC(=O)N2CCCN(c3nc(C)cs3)CC2)c1 | A: -16.66%
- Cc1ccc(C(=O)N2CCCN(C)c3ccc(F)cc32)o1 | A: -13.77%; B: -5.557%